Values from PubChem BioAssay AID1259414 (Drosophila RNAi Screening Center, 2018)
Screen: 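Host factors increasing or decreasing Wolbachia levels in cultured fly cells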 (primary screen). Cell system: Drosophila JW18 cells infected with Wolbachia. Reagent: long dsRNA against Drosophila genes, 0.25 µg dsRNA per well of a 384-well plate. Timing: 5 days. Challenge: cells persistently infected with Wolbachia before knock-down; no added drug. Measurement: 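Automated imaging of bacterial rRNA staining divided by host cell count, reported as plate-normalised robust z-score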. Scale: Wolbachia per cell robust z: higher = more Wolbachia per host cell than the plate typical. Rule for the call: 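Hit when robust z is 1.5 or more, or -1.5 or less, in at least two of three replicates; excludes dsRNAs with several or no targets, genes not expressed in JW18 and well A1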.
In all, the deposit lists about 24,000 reagents; this is an unselected part of those that have a named target and a result. Of all reagents, about 1,210 (5%) are marked active. 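Inactive calls also include excluded dsRNAs with several or no targets, genes unexpressed in JW18, and well A1, regardless of score.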 A number with no mark means an inactive call.

Gene | amplicon | Wolbachia per cell robust z, rep 1 | Wolbachia per cell robust z, rep 2 | Wolbachia per cell robust z, rep 3
PPO2 | DRSC07102 | 0.5 | 1.12 | -1.21
AsnRS | DRSC01990 | 0.195 | -0.644 | 0.429
CG12343 | DRSC06135 | 1.12 | 0.0464 | -0.362
ppk16 | DRSC02736 | -0.452 | 1.84 | 0.27
Spn42Db | DRSC05009 | -0.066 | 0.242 | -1.12
CG18507 | DRSC01334 | -0.209 | -0.0376 | -0.252
CG18507 | DRSC01914 | -0.493 | -0.64 | -0.864
CG4907 | DRSC15673 | 0.527 | 0.853 | 0.962
AANATL3 | DRSC02089 | 0.103 | -0.0599 | -1.21
Yp2 | DRSC18732 | 0.358 | -0.0508 | -0.397
Yp2 | DRSC29289 | -1.69 | -2.24 | -1.45
CG1542 | DRSC15035 | 2.25 (active) | 1.48 | 1.63
CG1542 | DRSC28631 | -1.45 | -0.263 | 1.27
Grip91 | DRSC20249 | -3.29 | -0.127 | 0.649
Grip91 | DRSC41548 | 0.207 | -1.03 | -0.503
MED10 | DRSC10474 | 0.358 | -1.11 | 0.489
Mst84B | DRSC12579 | -1.71 | 0.785 | 0.087
Mst84B | DRSC27767 | -0.776 | 0.216 | -0.755
dimm | DRSC03100 | 0.00812 | 1.04 | 0.00155
Cyp311a1 | DRSC20239 | 0.336 | 0.764 | 0.706
Cyp311a1 | DRSC27062 | -2.3 | -2.52 | 0.337
mtg | DRSC16256 | 1.15 | 0.791 | 0.274
mtg | DRSC24674 | -1.07 | 0.854 | 2.26
CG7299 | DRSC03043 | -0.669 | -1.16 | -0.818
CG7299 | DRSC25553 | 0.847 | 0.71 | -0.492
Oseg1 | DRSC10776 | 1.11 | 1.36 | 0.235
TwdlF | DRSC12225 | 0.762 | -1.91 | -0.751
TwdlF | DRSC27258 | -0.632 | 0.648 | -5.21
CG5262 | DRSC11773 | 0.895 | -0.276 | 1.08
Ptp99A | DRSC13939 | -0.956 | 0.781 | 1.02
Ptp99A | DRSC14319 | 0.346 | -0.0344 | -0.158
Ptp99A | DRSC14320 | -1.16 | -0.437 | 0.797
Ptp99A | DRSC16803 | 0.358 | -0.206 | -0.404
Ptp99A | DRSC22125 | -0.809 | 0.82 | 1
Ptp99A | DRSC22477 | 0.104 | 0.0854 | 0.191
Ptp99A | DRSC23033 | -0.00459 | -1.81 | -0.679
Fdx1 | DRSC11167 | -0.0389 | -1.13 | -0.337
Fdx1 | DRSC28052 | 0.377 | -0.606 | 0.303
AANATL6 | DRSC06773 | 0.659 | -0.655 | -2.01
AANATL6 | DRSC41518 | 0.425 | 1.32 | -1.14
CG3565 | DRSC04389 | -1.31 | -0.266 | -2.35
CG42855 | DRSC06161 | -2.49 (active) | 0.0443 | -2.15
TkR99D | DRSC16881 | 0.711 | -0.0129 | 0.439
Spn88Ea | DRSC17061 | 0.578 | -0.504 | 0.188
Spn88Ea | DRSC27907 | 1.3 | -0.646 | 0.293
upSET | DRSC23289 | -2.19 | -0.12 | -0.295
